Anti-infective test results gathered from many reports (values: NIAID ChemDB through PubChem).

Common to all: tests in culture; organism: Candida albicans; measure: MIC

Blank or dashed fields: not listed here. Rows are shuffled and stem from different studies. a–b is a range or a potency band.

{"compound": "COc1cccc(-c2sc3ccccc3c2CO)c1O", "result": ">100 µg/mL"}
{"compound": "COC1CC2CCC(C)C(O)(O2)C(=O)C(=O)N2CCCCC2C(=O)OC(C(C)CC2CCC(O)C(OC)C2)CC(=O)C(C)/C=C(\\C)C(O)CC(=O)C(C)CC(C)/C=C/C=C/C=C/1C", "strain or isolate": "ATCC11651", "result": "0.25 µg/mL"}
{"compound": "CCN(CC)CCSC(=S)NCc1ccccc1", "result": "10 µg/mL"}
{"compound": "CCCOC[N+](C)(C)Cc1cc(N=Nc2ccc(Cl)cc2)ccc1O", "result": "1256 µM"}
{"compound": "Cc1c(O)cccc1C(=O)N[C@@H](CSc1ccccc1)[C@H](O)CN1C[C@H]2CCCC[C@H]2C[C@H]1C(=O)NC(C)(C)C", "strain or isolate": "I49C", "result": ">64 µg/mL"}
{"compound": "CC(=O)c1cc(CNC(=S)SCCN(C)C)c(C)cc1C", "result": "100 µg/mL"}
{"compound": "CCCCCCOc1ccc(CC(N)C(=O)OCCCC)cc1", "result": "250 µg/mL"}
{"compound": "CCn1cc(C(=O)O)c(=O)c2cc(F)c(N3CCNCC3)cc21", "result": "312.5 µg/mL"}
{"compound": "CN(C)CCSC(=S)NCc1ccc(Cl)c(Cl)c1", "result": "10 µg/mL"}
{"compound": "NNC(=O)CSc1nnc(-c2ccco2)n1-c1ccc(Br)cc1", "strain or isolate": "ATCC 10231", "result": "8 µg/mL"}
{"compound": "Cc1ccc(N=Nc2ccc(O)c(C[N+](C)(C)COC3CCC(C)CC3)c2)cc1", "result": "72 µM"}
{"compound": "CC(C)[C@@H](C)[C@H](O)[C@@H]1CC23CC(=O)[C@]4(O)C(=C2CC[C@@H]3[C@@H]1C)C=C[C@]1(O)CC(=O)CC[C@]41C", "strain or isolate": "IFM 40009", "result": ">80 µg/mL"}
{"compound": "Fc1ccc(Nc2nnc(CSc3nnc(-c4ccco4)n3-c3ccc(Br)cc3)s2)cc1", "strain or isolate": "ATCC 10231", "result": "8 µg/mL"}
{"compound": "OCC1c2ccccc2SC1c1ccccc1O", "result": "12.5 µg/mL"}
{"compound": "CCCCCOC(=O)C(N)Cc1ccc(OC)c(Cl)c1", "result": "250 µg/mL"}
{"compound": "COc1ccc(-c2sc3ccccc3c2CO)c(O)c1", "result": "100 µg/mL"}
{"compound": "CCn1cc(C(=O)O)c(=O)c2cc(F)c(N3CCN(CN4C(=O)/C(=N\\c5ncc(Cc6cc(OC)c(OC)c(OC)c6)c(N)n5)c5cc(Cl)ccc54)CC3)cc21", "result": "156 µg/mL"}
{"compound": "CCC(C)CC(C)CCCCCCCCC(=O)N[C@H]1C[C@@H](O)[C@H](NCCN)NC(=O)[C@@H]2[C@@H](O)CCN2C(=O)[C@H]([C@H](O)CCN)NC(=O)[C@H]([C@H](O)[C@@H](O)c2ccc(O)cc2)NC(=O)[C@@H]2C[C@@H](O)CN2C(=O)[C@H]([C@@H](C)O)NC1=O", "strain or isolate": "B311", "result": "0.125 µg/mL"}
{"compound": "CCn1cc(C(=O)O)c(=O)c2cc(F)c(N3CCN(CN4C(=O)/C(=N\\c5ncc(Cc6cc(OC)c(OC)c(OC)c6)c(N)n5)c5cc(Br)ccc54)CC3)cc21", "result": "78.12 µg/mL"}
{"compound": "CCCCCOc1ccc(-c2ccc(-c3ccc(C(=O)N[C@H]4C[C@@H](O)[C@@H](O)NC(=O)[C@@H]5[C@@H](O)[C@@H](C)CN5C(=O)[C@H]([C@H](C)O)NC(=O)[C@H]([C@H](O)[C@@H](O)c5ccc(O)cc5)NC(=O)[C@@H]5C[C@@H](O)CN5C(=O)[C@H]([C@H](C)O)NC4=O)cc3)cc2)cc1", "strain or isolate": "94-93", "result": "0.008 µg/mL"}
{"compound": "CCCCCCOC[N+](C)(C)Cc1cc(N=Nc2ccc(Cl)cc2)ccc1O", "result": "70 µM"}
{"compound": "CCNc1nnc(CSc2nnc(-c3ccco3)n2-c2ccc(Br)cc2)s1", "strain or isolate": "ATCC 10231", "result": "8 µg/mL"}
{"compound": "CCN(CC)CCSC(=S)NCc1ccc(C)cc1", "result": "20 µg/mL"}
{"compound": "C/C=C/OC(=O)C(N)Cc1ccccc1", "result": "500 µg/mL"}
{"compound": "C=CCCN1C[C@H](OCC23C[C@@H]4[C@H](C)CC[C@H]4C4(C=O)CC2C=C(C(C)C)C34C(=O)O)O[C@H](C)[C@@H](OC)C1", "strain or isolate": "SANK51486", "result": "0.5 µg/mL"}
{"compound": "OCC1c2ccccc2SC1c1cc(Cl)ccc1O", "result": "50 µg/mL"}
{"compound": "O=C(CSc1nnc(-c2ccco2)n1-c1ccc(Br)cc1)NNC(=S)Nc1ccc(Br)cc1", "strain or isolate": "ATCC 10231", "result": "8 µg/mL"}
{"compound": "CCCCCCCCOC(=O)C(N)Cc1ccc(OC)cc1", "result": "250 µg/mL"}
{"compound": "CCn1cc(C(=O)O)c(=O)c2cc(F)c(N3CCN(CN4C(=O)C(=Nc5ccc(S(=O)(=O)Nc6ncnc(OC)c6OC)cc5)c5cc(Br)ccc54)CC3)cc21", "result": "78.12 µg/mL"}
{"compound": "COC(=O)C1C(O)CC2(O)CC(O)CC(O)CC(O)CC(O)CC(=O)CC(O)CC(=O)OC(C(C)CCC(O)CC(=O)c3ccc(N)cc3)C(C)/C=C/C=C/C=C/C=C/C=C/C=C/C=C/C(O[C@@H]3O[C@H](C)[C@@H](O)[C@H](N)[C@@H]3O)CC1O2", "strain or isolate": "10 isolates", "result": "0.25–0.5 µg/mL"}
{"compound": "Cc1ccc(N=Nc2ccc(O)c(C[N+](C)(C)COC3CCCCCC3)c2)cc1", "result": "37 µM"}
{"compound": "CN(C)CCSC(=S)NCc1cccc(C(F)(F)F)c1", "result": "100 µg/mL"}
{"compound": "CCOC1Oc2ccc(C)cc2C(=O)/C1=C\\Nc1ccc(C(=O)O)c(O)c1", "result": "10 µg/mL"}
{"compound": "O=c1c2sc(=S)n(-c3ccccc3)c2[nH]c(=S)n1-c1ccccc1", "strain or isolate": "ATCC 90018", "result": "6 µg/mL"}
{"compound": "CCCCCCCCOC[N+](C)(C)Cc1cc(N=Nc2ccc(Cl)cc2)ccc1O", "result": "267 µM"}
{"compound": "CCCCCOC(=O)C(N)Cc1cc(I)c(OC)c(I)c1", "result": "500 µg/mL"}
{"compound": "OCC1c2ccccc2SC1c1ccc(O)cc1O", "result": "100 µg/mL"}
{"compound": "CCCCCC/C=C/CCCCC/C=C/[C@@H](C)[C@H](CO[C@@H]1O[C@H](CO)[C@@H](O)[C@H](O)[C@H]1O)NC(=O)[C@H](O)CCCCCCCCCCCCCC", "strain or isolate": "ATCC 2091", "result": "10 µg/mL"}
{"compound": "COc1ccc(CNC(=S)SCCN(C)C)cc1", "result": "100 µg/mL"}
{"compound": "CCCCCOc1ccc(-c2ccc(-c3ccc(C(=O)N[C@H]4C[C@@H](O)[C@@H](O)NC(=O)[C@@H]5[C@@H](O)[C@@H](C)CN5C(=O)[C@H]([C@H](C)O)NC(=O)[C@H]([C@H](O)[C@@H](O)c5ccc(O)cc5)NC(=O)[C@@H]5C[C@@H](O)CN5C(=O)[C@H]([C@H](C)O)NC4=O)cc3)cc2)cc1", "strain or isolate": "90028", "result": "0.015 µg/mL"}
{"compound": "Cc1ccc(N=Nc2ccc(O)c(C[N+](C)(C)COC3CCCCCCC3)c2)cc1", "result": "36 µM"}
{"compound": "Cc1ccc(C(=O)CSc2nc3c(sc(=S)n3-c3ccccc3)c(=O)n2-c2ccccc2)cc1", "strain or isolate": "ATCC 90018", "result": "64 µg/mL"}
{"compound": "O=C(CSc1nnc(-c2ccco2)n1-c1ccc(Br)cc1)NNC(=S)Nc1ccc(F)cc1", "strain or isolate": "ATCC 10231", "result": "8 µg/mL"}
{"compound": "CCn1cc(C(=O)O)c(=O)c2cc(F)c(N3CCN(CN4C(=O)C(=Nc5ccc(S(=O)(=O)Nc6ncnc(OC)c6OC)cc5)c5cc(Cl)ccc54)CC3)cc21", "result": "156 µg/mL"}
{"compound": "Cn1c(SCC(=O)c2ccc(Br)cc2)nc2c(sc(=S)n2-c2ccccc2)c1=O", "strain or isolate": "ATCC 90018", "result": "64 µg/mL"}
{"compound": "CCCCCCCCCCCOC[N+](C)(C)Cc1cc(N=Nc2ccc(C)cc2)ccc1O", "result": "1021 µM"}
{"compound": "CCCCNc1nnc(CSc2nnc(-c3ccco3)n2-c2ccc(Br)cc2)s1", "strain or isolate": "ATCC 10231", "result": "8 µg/mL"}
{"compound": "CCn1c(SCC(=O)c2ccc(Cl)cc2)nc2c(sc(=S)n2-c2ccccc2)c1=O", "strain or isolate": "ATCC 90018", "result": "64 µg/mL"}
{"compound": "OC(Cn1cncn1)(Cn1cncn1)c1ccc(F)cc1F", "strain or isolate": "9760-H85", "result": "12.5 µg/mL"}
{"compound": "CCn1c(=S)[nH]c2c(sc(=S)n2-c2ccccc2)c1=O", "strain or isolate": "ATCC 90018", "result": "32 µg/mL"}
{"compound": "CN(C)c1ccc(C2Sc3ccccc3C2CO)cc1", "result": "50 µg/mL"}
{"compound": "CCCCCCCCCOC(=O)C(N)Cc1ccc(OC)cc1", "result": "250 µg/mL"}
{"compound": "OCC1c2ccccc2SC1c1cc(Br)ccc1O", "result": ">100 µg/mL"}
{"compound": "CN(C)CCSC(=S)NCc1c(Cl)cccc1Cl", "result": "40 µg/mL"}

A second listing of 4 rows from above:

compound | strain or isolate | result
CCn1c(SCC(=O)c2ccc(Cl)cc2)nc2c(sc(=S)n2-c2ccccc2)c1=O | ATCC 90018 | 64 µg/mL
CCn1cc(C(=O)O)c(=O)c2cc(F)c(N3CCN(CN4C(=O)/C(=N\c5ncc(Cc6cc(OC)c(OC)c(OC)c6)c(N)n5)c5cc(Cl)ccc54)CC3)cc21 | - | 156 µg/mL
CCCCCCCCOC(=O)C(N)Cc1ccc(OC)cc1 | - | 250 µg/mL
CCCCCCCCOC[N+](C)(C)Cc1cc(N=Nc2ccc(Cl)cc2)ccc1O | - | 267 µM